# Reference: PMC8566969, “Comparison of viral RNA–host protein interactomes across pathogenic RNA viruses informs rapid antiviral drug discovery for SARS-CoV-2” (Cell Research, 2021)
# Assay: in vitro
# Details: human
smiles,measurement,value
"CC(C)(O)CNc1nc(Nc2ccnc(C(F)(F)F)c2)nc(-c2cccc(C(F)(F)F)n2)n1 [Enasidenib, 2-Methyl-1-(4-(6-(trifluoromethyl)pyridin-2-yl)-6-(2-(trifluoromethyl)pyridin-4-ylamino)-1,3,5-triazin-2-ylamino)propan-2-ol]",CC50,32.7 µM
